Compound potency records, mixed from different reports. Data source: NIAID ChemDB in PubChem.

Shared fields: enzyme or target tests

Blank or dashed fields: not listed here. Percent inhibition refers to the dose given; in toxicity tests it is the harm to the cells. a–b is a range or a potency band. Fold resistance: result on the changed form divided by that on wild type. Lines come from different laboratories, so protocols vary. ICn is the concentration giving n% inhibition.

smiles | protein | agent | strain | dose | changes | read-out | read by | value
O=C(OC[C@H]1O[C@@H](O)[C@@H]2OC(=O)c3cc(O)c(O)c(O)c3-c3c(cc(O)c(O)c3O)C(=O)O[C@H]2[C@@H]1OC(=O)c1cc(O)c(O)c(O)c1Oc1cc2c(c(O)c1O)-c1c(cc(O)c(O)c1O)C(=O)O[C@@H]1[C@@H](OC2=O)[C@H](OC(=O)c2cc(O)c(O)c(O)c2)O[C@@H]2COC(=O)c3cc(O)c(O)c(O)c3-c3c(cc(O)c(O)c3O)C(=O)O[C@@H]12)c1cc(O)c(OC(=O)c2cc(O)c(O)c(O)c2)c(O)c1 | gp120 | HIV-1 | - | 6.25 µg/mL | - | inhibition | binding | 88.5%
CN1CCn2c(nc(C(=O)NCc3ccc(F)cc3)c(O)c2=O)C(N(C)S(C)(=O)=O)C1 | Integrase | HIV-1 | - | - | - | IC50 | ELISA | <10 µM
Cc1nnc2c3c(c(N4CCc5ccccc5C4)nn12)C1CCC3CC1 | Reverse transcriptase | HIV-1 | 98US_MSC5016 | - | - | IC90 | RT activity / fluorescence | 9.75 µM
CCCCN(CCCC)c1nc(OCCc2ccc([N+](=O)[O-])cc2)c2ncn([C@@H]3O[C@H](COP(O)(=S)O[C@H]4[C@@H](F)[C@H](n5cnc6c(N)ncnc65)O[C@@H]4CO)[C@@H](O)[C@H]3O)c2n1 | RNase H | HIV-1 | - | - | - | Ki | RNase H | 6.5 µM
O=CC(O)C(OC(=O)c1cc(O)c(O)c(O)c1)C1OC(=O)c2cc(O)c(O)c(O)c2-c2c(cc(O)c(O)c2O)C(=O)OCC1O | gp120 | HIV-1 | - | 12.5 µg/mL | - | inhibition | binding | 67.4%
COC(=O)N1CCn2c(nc(C(=O)NCc3ccc(F)cc3)c(O)c2=O)C1CN(C)C | Integrase | HIV-1 | - | - | - | IC50 | ELISA | <10 µM
CCCCCCCCC[C@@H]1O[C@@H]1C(N)=O | Protease | HIV-2 | - | 500 µg/mL | - | inhibition | HPLC | 0%
CC1c2nc(C(=O)NCc3ccc(F)cc3)c(O)c(=O)n2CCN1C | Integrase | HIV-1 | - | - | - | IC50 | ELISA | <10 µM
COc1ccnc2[nH]cc(C(=O)C(=O)N3CCN(C(=O)c4ccccc4)C[C@H]3C)c12 | gp120 | HIV-1 | LAI | - | GP120-M434V | fold resistance | ELISA | 67
Cc1cc(S(=O)(=O)NC2=NC3C=CSC3C(=O)N2N)c(S)cc1Cl | Integrase | HIV | - | - | - | IC50 | strand transfer | 53 µM
CCOC(=O)C(=O)CC(=O)/C=C/c1cccn1Cc1ccc(C)cc1C | RNase H | HIV-1 | - | 100 µM | Y501A | inhibition | substrate cleavage / fluorescence | 15%
CCc1cc(NCc2nc3c(C)ccc(C)c3o2)c(=O)[nH]c1C | Reverse transcriptase | HIV-1 | - | - | RT-Y181C | fold resistance | nucleotide incorporation | 735
O=C(NO)[C@H]1CC[C@H](NS(=O)(=O)c2ccc(N3CCC(CCCC4CCN(S(=O)(=O)c5cc(Br)c(Cl)s5)CC4)CC3)c(Cl)c2)C1 | gp120 + CD4 | HIV-1 | - | - | - | IC50 | fluorescence | >10 µM
C=CC1=C(C)C2=NC1=CC1=NC(=C(CC)/C1=C\[O-])C=c1[n-]c3c(c1C)C(=O)[C@H](C(=O)OC)C=3C1=NC(=C2)[C@@H](C)[C@@H]1CCC(=O)OC/C=C(\C)CCCC(C)CCCC(C)CCCC(C)C.[Mg+2] | gp120 | HIV-1 | - | 60 µg/mL | - | inhibition | - | 63.4%
Nc1nc2c(ncn2[C@@H]2O[C@H](CO)C(OP(O)(=S)OC[C@H]3O[C@@H](n4cnc5c(=O)[nH]c(N)nc54)[C@H](O)[C@@H]3O)C2O)c(=O)[nH]1 | RNase H | HIV-1 | - | 50 µM | - | inhibition | RNase H | 50%
COc1ccc2c(c1)CN(c1nn3c(C)nnc3c3ccccc13)CC2 | Reverse transcriptase | HIV-1 | KER2008 | - | - | IC50 | RT activity / fluorescence | 5.26 µM
CCOC(=O)C(=O)CC(=O)/C=C/c1cc(-c2ccccc2)cn1Cc1ccc(F)cc1 | RNase H | HIV-1 | - | 100 µM | N474A | inhibition | substrate cleavage / fluorescence | 0%
Cc1cc(S(=O)(=O)/[NH+]=C2/N=C3C=C(c4ccsc4)SC3C(=O)N2Cc2ccco2)c(S)cc1Cl | Integrase | HIV | - | - | - | IC50 | strand transfer | 6 µM
CCCC[C@@H](CN[C@@H](CCC(N)=O)C(=O)N[C@@H](CCCN=C(N)N)C(N)=O)NC(=O)[C@H](CCCC)NC(=O)C(NC(=O)C(NC(C)=O)[C@@H](C)O)[C@@H](C)CC | Protease | HIV | - | - | PR-G48V | IC50 | HPLC | >2.17 µM
Nc1nc2c(ncn2[C@@H]2O[C@H](COP(=O)(O)O[C@H]3[C@@H](F)[C@H](n4cnc5c(N)ncnc54)O[C@@H]3CO)[C@@H](O)[C@H]2O)c(=O)[nH]1 | RNase H | HIV-1 | - | 50 µM | - | inhibition | RNase H | 34%
CCOC(=O)/C=C/n1ncnc1-c1cc(Cl)ccc1N | Rev:RRE | HIV-1 | - | - | - | IC50 | luciferase | 1.98 µM
CC1=C(CCC(=O)O)c2cc3nc(cc4[nH]c(cc5[nH]c(cc1n2)c(CCC(=O)O)c5CC(=O)O)c(CCC(=O)O)c4C)C(CCC(=O)O)=C3C | gp120 | HIV-1 | - | - | - | IC50 | - | >60 µg/mL
CCCCCCCCCCCCCCCCCC(=O)NCCN(CC(=O)O)C(=O)Cn1cc(C)c(=O)[nH]c1=O | Integrase | HIV | - | - | - | IC50 | - | 22 µM
Nc1cnc2c(c1)CN(c1nn3c(C4CC4)nnc3c3ccccc13)CC2 | Reverse transcriptase | HIV-1 | KER2008 | - | - | IC50 | RT activity / fluorescence | 26.7 µM
CCC1=C(C)/C(=C/c2[nH]c(Cc3[nH]c(/C=C4\NC(=O)C(C)=C4CC)c(C)c3CCC(=O)O)c(CCC(=O)O)c2C)NC1=O | gp120 | HIV-1 | - | - | - | IC50 | - | >60 µg/mL
Cc1c(N2CCc3ccccc3C2)nn2c(C)nnc2c1C | Reverse transcriptase | HIV-1 | KER2008 | - | - | IC90 | RT activity / fluorescence | 76.7 µM
C=Cc1c(C)c2cc3nc(cc4[nH]c(cc5nc(cc1[nH]2)C(C)=C5CO)c(C)c4CCC(=O)O)C(CCC(=O)O)=C3C | gp120 | HIV-1 | - | - | - | IC50 | - | <60 µg/mL
CN(C)C(=O)C(=O)N(C)C1CN(CCc2ccccc2)CCn2c1nc(C(=O)NCc1ccc(F)cc1)c(O)c2=O | Integrase | HIV-1 | - | - | - | IC50 | ELISA | <10 µM
O=c1c(-c2ccncc2)cn2ccn(Cc3cccc(F)c3)c(=O)c2c1O | Integrase | HIV-1 | - | - | - | IC50 | ELISA | 0.01–0.1 µM
CC(C)=CCN1Cc2cccc3[nH]c(=S)n(c23)C[C@@H]1C | Reverse transcriptase | HIV | - | - | - | Ki | nucleotide incorporation | 0.69 µM
Nc1nc2c(ncn2[C@@H]2O[C@H](COP(=O)(O)O[C@H]3[C@@H](O)[C@H](n4cnc5c(=O)[nH]c(N)nc54)O[C@@H]3CO)[C@@H](O)[C@H]2O)c(=O)[nH]1 | RNase H | HIV-1 | - | 50 µM | - | inhibition | RNase H | 89%
Cc1cc(CN2CCn3c(nc(C(=O)NCc4ccc(F)cc4)c(O)c3=O)C2(C)C)no1 | Integrase | HIV-1 | - | - | - | IC50 | ELISA | <10 µM
N[C@H]1[C@@H](O[C@H]2[C@H](O)[C@@H](O)[C@H](N)C[C@@H]2N)O[C@H](CNC(=O)c2ccc3ccc4cccc5ccc2c3c45)[C@@H](O)[C@@H]1O | Rev:RRE | HIV-1 | - | - | - | Ki | fluorescence | 0.24 µM
CC(=O)c1ccc(O)c2nc(/C=C/c3cc(O)c(O)c(Cl)c3)ccc12 | Integrase | HIV | HXB2 | - | - | IC50 | 3′ processing / gel | 0.53 µM
O=C(NCc1ccccc1)c1cn2ccn(Cc3cccc(Cl)c3)c(=O)c2c(O)c1=O | Integrase | HIV-1 | - | - | - | IC50 | ELISA | <0.01 µM
O=CC1OC(=O)c2cc(O)c(O)c(O)c2Oc2cc3c(c(O)c2O)-c2c(cc(O)c(O)c2O)C(=O)OCC2OC(OC(=O)c4cc(O)c(O)c(O)c4Oc4cc5c(c(O)c4O)-c4c(cc(O)c(O)c4O)C(=O)OC(C(O)COC5=O)C1OC(=O)c1cc(O)c(O)c(O)c1)C(OC(=O)c1cc(O)c(O)c(O)c1)C(OC(=O)c1cc(O)c(O)c(O)c1)C2OC3=O | gp120 | HIV-1 | - | 1.56 µg/mL | - | inhibition | binding | 62%
O=C(O)CCC1=C(CC(=O)O)c2cc3nc(cc4[nH]c(cc5[nH]c(cc1n2)c(CC(=O)O)c5CCC(=O)O)c(CCC(=O)O)c4CC(=O)O)C(CC(=O)O)=C3CCC(=O)O | gp120 | HIV-1 | - | - | - | IC50 | - | <60 µg/mL
Cc1ccc(Cn2cccc2/C=C/C(=O)CC(=O)C(=O)O)c(C)c1 | RNase H | HIV-1 | - | - | Y501A | IC50 | substrate cleavage / fluorescence | >100 µM
c1ccc(-c2nnc3c4ccccc4c(N4CCc5ccccc5C4)nn23)cc1 | Reverse transcriptase | HIV-1 | KER2008 | - | - | IC90 | RT activity / fluorescence | >100 µM
COc1cc(/C=C/c2ccc3c(C(C)=O)ccc(O)c3n2)cc([N+](=O)[O-])c1O | Integrase | HIV | HXB2 | - | - | IC50 | 3′ processing / gel | 0.724 µM
Cc1ccc(N=Nc2c(S(=O)(=O)O)cc3cc(S(=O)(=O)O)cc(Nc4nc(Cl)nc(N(C)c5ccccc5)n4)c3c2O)c(S(=O)(=O)O)c1 | gp41 | HIV-1 | IIIB | - | - | IC50 | ELISA | 3.18 µg/mL
COC(=O)c1cn(Cc2cccc(Cl)c2)c(=O)c2c(O)c(=O)ccn12 | Integrase | HIV-1 | - | - | - | IC50 | ELISA | 0.01–0.1 µM
CCCC(C)Nc1nc(OCCc2ccc([N+](=O)[O-])cc2)c2ncn([C@@H]3O[C@H](COP(O)(=S)O[C@H]4C[C@H](n5cnc6c(N)ncnc65)O[C@@H]4CO)[C@@H](O)[C@H]3O)c2n1 | RNase H | HIV-1 | - | 50 µM | - | inhibition | RNase H | 100%
CC(=O)c1ccc(O)c2nc(/C=C/c3cc(O)c(O)cc3O)ccc12 | Integrase | HIV | HXB2 | - | - | IC50 | 3′ processing / gel | 0.225 µM
CC(C)(C)C(=O)c1cn2c(c(O)c1=O)C(=O)N(Cc1ccc(F)c(Cl)c1)CC2 | Integrase | HIV-1 | - | - | - | IC50 | ELISA | <0.01 µM
Cc1cc(CNC(=O)c2nc3n(c(=O)c2O)CCN(C)CC3N(C)C(=O)C(=O)N(C)C)ccc1F | Integrase | HIV-1 | - | - | - | IC50 | ELISA | <10 µM
Cc1nnc2c3ccccc3c(N3CCc4ncccc4C3)nn12 | Reverse transcriptase | HIV-1 | IIIB | - | - | IC90 | RT activity / fluorescence | 11.5 µM
Nc1nc2c(ncn2[C@H]2CC[C@@H](COP(=O)(O)OP(=O)(O)OP(=O)(O)O)O2)c(=O)[nH]1 | Reverse transcriptase | HIV | - | - | RT-F61L | fold resistance | nucleotide incorporation | 1
COc1cccc(Cn2cccc2/C=C/C(=O)CC(=O)C(=O)O)c1 | RNase H | HIV-1 | - | 100 µM | R557A | inhibition | substrate cleavage / fluorescence | 32%
Nc1nc2c(ncn2[C@H]2CO[C@@H](COP(=O)(O)OP(=O)(O)OP(=O)(O)O)O2)c(=O)[nH]1 | Reverse transcriptase | HIV | - | - | RT-K65R | fold resistance | radiometric | 1.8
Nc1nc2c(ncn2[C@@H]2O[C@H](COP(O)(=S)OC3C[C@H](n4cnc5c(=O)[nH]c(N)nc54)O[C@@H]3CO)[C@@H](O)[C@H]2O)c(=O)[nH]1 | RNase H | HIV-1 | - | 50 µM | - | inhibition | RNase H | 65%
CCCCCCC[C@H]1O[C@H]1CO | Protease | HIV-2 | - | - | - | IC50 | HPLC | <500 µg/mL
CC(C)CNc1nc(OCCc2ccc([N+](=O)[O-])cc2)c2ncn([C@@H]3O[C@H](COP(O)(=S)O[C@H]4[C@@H](F)[C@H](n5cnc6c(N)ncnc65)O[C@@H]4CO)[C@@H](O)[C@H]3O)c2n1 | RNase H | HIV-1 | - | 50 µM | - | inhibition | RNase H | 3%
C1=Cc2nc1c(-c1ccncc1)c1ccc([nH]1)c(-c1ccncc1)c1nc(c(-c3ccncc3)c3ccc([nH]3)c2-c2ccncc2)C=C1 | gp120 | HIV-1 | - | 60 µg/mL | - | inhibition | - | 88.2%

The first 6 rows once more:

smiles | protein | agent | strain | dose | changes | read-out | read by | value
O=C(OC[C@H]1O[C@@H](O)[C@@H]2OC(=O)c3cc(O)c(O)c(O)c3-c3c(cc(O)c(O)c3O)C(=O)O[C@H]2[C@@H]1OC(=O)c1cc(O)c(O)c(O)c1Oc1cc2c(c(O)c1O)-c1c(cc(O)c(O)c1O)C(=O)O[C@@H]1[C@@H](OC2=O)[C@H](OC(=O)c2cc(O)c(O)c(O)c2)O[C@@H]2COC(=O)c3cc(O)c(O)c(O)c3-c3c(cc(O)c(O)c3O)C(=O)O[C@@H]12)c1cc(O)c(OC(=O)c2cc(O)c(O)c(O)c2)c(O)c1 | gp120 | HIV-1 | - | 6.25 µg/mL | - | inhibition | binding | 88.5%
CN1CCn2c(nc(C(=O)NCc3ccc(F)cc3)c(O)c2=O)C(N(C)S(C)(=O)=O)C1 | Integrase | HIV-1 | - | - | - | IC50 | ELISA | <10 µM
Cc1nnc2c3c(c(N4CCc5ccccc5C4)nn12)C1CCC3CC1 | Reverse transcriptase | HIV-1 | 98US_MSC5016 | - | - | IC90 | RT activity / fluorescence | 9.75 µM
CCCCN(CCCC)c1nc(OCCc2ccc([N+](=O)[O-])cc2)c2ncn([C@@H]3O[C@H](COP(O)(=S)O[C@H]4[C@@H](F)[C@H](n5cnc6c(N)ncnc65)O[C@@H]4CO)[C@@H](O)[C@H]3O)c2n1 | RNase H | HIV-1 | - | - | - | Ki | RNase H | 6.5 µM
O=CC(O)C(OC(=O)c1cc(O)c(O)c(O)c1)C1OC(=O)c2cc(O)c(O)c(O)c2-c2c(cc(O)c(O)c2O)C(=O)OCC1O | gp120 | HIV-1 | - | 12.5 µg/mL | - | inhibition | binding | 67.4%
COC(=O)N1CCn2c(nc(C(=O)NCc3ccc(F)cc3)c(O)c2=O)C1CN(C)C | Integrase | HIV-1 | - | - | - | IC50 | ELISA | <10 µM